Where two headings read alike, the source gives them in different places.
Columns and labels:
[1] = molecular target: biotinylated peptide …, the final 11 residues of ribosomal stalk proteins P1 and P2
[2] = molecular target: biotinylated peptide …, the final 11 residues of ribosomal stalk proteins P1 and P2; remark: listed apart in the source

With “wild-type SLT-1 A1 chain (catalytic A1 chain of Shiga-like toxin 1)” as the substance, how does the Kd [1] read?
The Kd was 10.6 µM.

And the Kd [2]?
Its Kd is 13 µM.

Source: publication PMC3280276 (PLoS ONE, 2012)
